PubChem BioAssay AID1259414 – Drosophila RNAi Screening Center – 2018
The deposit covers about 24,000 reagents; shown is an unselected part of those that have a named target and a result. In the full data, about 1,210 (5%) are marked active. 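Inactive calls also include excluded dsRNAs with several or no targets, genes unexpressed in JW18, and well A1, regardless of score.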

- Purpose: 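Host factors increasing or decreasing Wolbachia levels in cultured fly cells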 (primary screen)
- System: Drosophila JW18 cells infected with Wolbachia
- Reagents: long dsRNA against Drosophila genes, 0.25 µg dsRNA per well of a 384-well plate
- Duration: 5 days
- Treatment: cells persistently infected with Wolbachia before knock-down; no added drug
- Measured: 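Automated imaging of bacterial rRNA staining divided by host cell count, reported as plate-normalised robust z-score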
- Scale: Wolbachia per cell robust z: higher = more Wolbachia per host cell than the plate typical
- Hit rule: 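Active if absolute robust z reaches 1.5 in two or more of three replicates, leaving out multi- or no-target dsRNAs, genes unexpressed in JW18 and A1 wells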

After knock-down of CG33060 [DRSC09939] the results were Wolbachia per cell robust z, rep 1 = -1.56; Wolbachia per cell robust z, rep 2 = 0.289; Wolbachia per cell robust z, rep 3 = -0.75; inactive.
For bsh [DRSC03498], the values are Wolbachia per cell robust z, rep 1 = -0.813; Wolbachia per cell robust z, rep 2 = -0.361; Wolbachia per cell robust z, rep 3 = -1.71; inactive.
For bsh [DRSC25413] the deposit lists Wolbachia per cell robust z, rep 1 = 0.822; Wolbachia per cell robust z, rep 2 = 0.839; Wolbachia per cell robust z, rep 3 = 0.636; inactive.
After knock-down of CG16779 [DRSC15153], the screen gave Wolbachia per cell robust z, rep 1 = -0.13; Wolbachia per cell robust z, rep 2 = 0.917; Wolbachia per cell robust z, rep 3 = -0.793; inactive.
For hgo [DRSC03544], the entry reads Wolbachia per cell robust z, rep 1 = -0.519; Wolbachia per cell robust z, rep 2 = -0.752; Wolbachia per cell robust z, rep 3 = -0.683; inactive.
For fs(1)M3 [DRSC18381] the deposit lists Wolbachia per cell robust z, rep 1 = 0.0433; Wolbachia per cell robust z, rep 2 = -0.315; Wolbachia per cell robust z, rep 3 = -0.731; inactive.
With knock-down of fs(1)M3 [DRSC29155], the screen gave Wolbachia per cell robust z, rep 1 = -0.919; Wolbachia per cell robust z, rep 2 = -0.177; Wolbachia per cell robust z, rep 3 = -0.029; inactive.
CG14324 [DRSC14803] scored Wolbachia per cell robust z, rep 1 = -0.294; Wolbachia per cell robust z, rep 2 = 0.187; Wolbachia per cell robust z, rep 3 = -0.476; inactive.
For CG14324 [DRSC24292] the deposit lists Wolbachia per cell robust z, rep 1 = -0.153; Wolbachia per cell robust z, rep 2 = 2.19; Wolbachia per cell robust z, rep 3 = 0.21; inactive.
For Septin2 [DRSC16855] the deposit lists Wolbachia per cell robust z, rep 1 = -0.0161; Wolbachia per cell robust z, rep 2 = 0.521; Wolbachia per cell robust z, rep 3 = -0.953; inactive.
Knock-down of Mtl [DRSC16751] came out at: Wolbachia per cell robust z, rep 1 = -4.49; Wolbachia per cell robust z, rep 2 = -0.703; Wolbachia per cell robust z, rep 3 = -0.355; inactive.
For mthl9 [DRSC08506] the deposit lists Wolbachia per cell robust z, rep 1 = 0.401; Wolbachia per cell robust z, rep 2 = 0.358; Wolbachia per cell robust z, rep 3 = -0.711; inactive.
With knock-down of Best2 [DRSC09712] the results were Wolbachia per cell robust z, rep 1 = 0.871; Wolbachia per cell robust z, rep 2 = 0.463; Wolbachia per cell robust z, rep 3 = -4.11; inactive.
With knock-down of mfrn [DRSC15687], the screen gave Wolbachia per cell robust z, rep 1 = 1.53; Wolbachia per cell robust z, rep 2 = 0.639; Wolbachia per cell robust z, rep 3 = -0.285; inactive.
Against CG33159 [DRSC08199] the deposit lists Wolbachia per cell robust z, rep 1 = 0.224; Wolbachia per cell robust z, rep 2 = 0.137; Wolbachia per cell robust z, rep 3 = -0.816; inactive.
CG33189 [DRSC21427] gave Wolbachia per cell robust z, rep 1 = -0.0897; Wolbachia per cell robust z, rep 2 = 0.896; Wolbachia per cell robust z, rep 3 = -0.989; inactive.
With knock-down of CG33189 [DRSC25923] the results were Wolbachia per cell robust z, rep 1 = -0.175; Wolbachia per cell robust z, rep 2 = -0.143; Wolbachia per cell robust z, rep 3 = 1.51; inactive.
For Tom70 [DRSC02990] the deposit lists Wolbachia per cell robust z, rep 1 = -0.245; Wolbachia per cell robust z, rep 2 = 0.347; Wolbachia per cell robust z, rep 3 = -0.307; inactive.
With knock-down of CG14810 [DRSC17693], the screen gave Wolbachia per cell robust z, rep 1 = 1.82; Wolbachia per cell robust z, rep 2 = 1.24; Wolbachia per cell robust z, rep 3 = 0.839; inactive.
With knock-down of CG14810 [DRSC17961], the screen gave Wolbachia per cell robust z, rep 1 = 0.516; Wolbachia per cell robust z, rep 2 = -1.84; Wolbachia per cell robust z, rep 3 = -0.0359; inactive.
CG14810 [DRSC25199] scored Wolbachia per cell robust z, rep 1 = -2.18; Wolbachia per cell robust z, rep 2 = -2.87; Wolbachia per cell robust z, rep 3 = -0.176; inactive.
Golgin104 [DRSC10459] showed Wolbachia per cell robust z, rep 1 = 0.162; Wolbachia per cell robust z, rep 2 = -0.866; Wolbachia per cell robust z, rep 3 = -1.04; inactive.
Golgin104 [DRSC26351] showed Wolbachia per cell robust z, rep 1 = -0.547; Wolbachia per cell robust z, rep 2 = -0.377; Wolbachia per cell robust z, rep 3 = 0.75; inactive.
CG3191 [DRSC18530] scored Wolbachia per cell robust z, rep 1 = 0.782; Wolbachia per cell robust z, rep 2 = 0.081; Wolbachia per cell robust z, rep 3 = 0.793; inactive.
After knock-down of CG3191 [DRSC29390], the screen gave Wolbachia per cell robust z, rep 1 = 0.521; Wolbachia per cell robust z, rep 2 = -0.977; Wolbachia per cell robust z, rep 3 = -0.985; inactive.
